The nature of the data set: pigskin staining test. On the set-up: species or system pig. The following applies: about 10 μL on pigskin, about 24 hours, room temperature.

For the compound `O=Cc1cccc(C=O)c1` [IPA, isophthalaldehyde, reference compound], under “0.20% solution”, the “Staining Results” value is listed as “Non-Staining”.
With `O=Cc1ccccc1C=O` [OPA, phthalaldehyde], the “Staining Results” value (0.14% solution) was “Dark Staining”.
